Anti-infective test results gathered from many reports (values: NIAID ChemDB through PubChem).

Shared fields: whole-cell or culture tests; agent: HIV-2; cell line: CEM; read-out: EC50

Rows are shuffled and stem from different studies.

smiles | strain | read by | result
Cc1cn([C@@H]2O[C@H](COCc3ccccc3)C3(OS(=O)(=O)C=C3N)[C@H]2O[Si](C)(C)C(C)(C)C)c(=O)[nH]c1=O | ROD | syncytia | >6 µM
Cc1cc(NCc2ccccc2)c(C(=O)C(Cl)Cl)c(=O)o1 | ROD | MTT | >2 µM
COC(=O)Cn1c(=O)c(C)cn([C@H]2C[C@H](N=[N+]=[N-])[C@@H](CO[Si](C)(C)C(C)(C)C)O2)c1=O | ROD | syncytia | >10 µM
O=Cc1ccccc1B(O)O | ROD | syncytia | ≥50 µM
Cc1cn([C@@H]2O[C@H](CO[Si](C)(C)C(C)(C)C)C3(OS(=O)(=O)C=C3N)[C@H]2O)c(=O)[nH]c1=O | ROD | syncytia | >40 µM
O=Cc1ccc(B(O)O)cc1 | ROD | syncytia | >50 µM
CC(C)(C)[Si](C)(C)OC[C@H]1O[C@@H](n2cnc3c(=O)n(CC(=O)O)cnc32)[C@H](O[Si](C)(C)C(C)(C)C)[C@@H]1O | ROD | syncytia | 15 µM
Cc1cc(N[C@@H](C)c2cccc3ccccc23)cc(=O)o1 | ROD | MTT | >10 µM
CCc1cn([C@@H]2O[C@H](CO[Si](C)(C)C(C)(C)C)[C@@H](O)[C@H]2O[Si](C)(C)C(C)(C)C)c(=O)n(CC(=O)O)c1=O | ROD | syncytia | >10 µM
COC(=O)[C@H](C)NP(=O)(OC[C@@H]1C=C[C@H](n2cc(C)c(=O)[nH]c2=O)O1)Oc1ccccc1 | - | - | 0.075 µM
Cc1cn([C@H]2C=C[C@@H](CO[Si](C)(C)C(C)(C)C)O2)c(=O)n(CC(=O)O)c1=O | ROD | syncytia | >50 µM
Cc1cn([C@H]2C[C@H](N=C(N)n3cncn3)[C@@H](CO)O2)c(=O)[nH]c1=O | ROD | cytopathic effect / MTT | >20 µg/mL
CO[Si](OC[C@H]1O[C@@H](n2cc(C)c(=O)n(C)c2=O)[C@H](O[Si](C)(C)C(C)(C)C)C12OS(=O)(=O)C=C2N)(c1ccccc1)C(C)(C)C | ROD | syncytia | >6.6 µM
CC(C)CNc1nc(N)nc2c1ncn2CCOCP(=O)(O)O | ROD | cytopathic effect / MTT | 0.3 µg/mL
Cc1cc(NCCc2c[nH]c3ccccc23)cc(=O)o1 | ROD | MTT | ≥50 µM
Cc1cn([C@H]2C[C@H](Nc3n[nH]c(N)n3)[C@@H](CO)O2)c(=O)[nH]c1=O | ROD | cytopathic effect / MTT | >100 µg/mL
CC(C)(C)[Si](C)(C)OC[C@H]1O[C@@H](n2ccc(=O)n(CC(=O)O)c2=O)[C@H](O)[C@@H]1O[Si](C)(C)C(C)(C)C | ROD | syncytia | >10 µM
Cc1cn([C@@H]2O[C@H](COCc3ccccc3)C3(OS(=O)(=O)C=C3NC(=O)c3ccccc3)[C@H]2OC(=O)c2ccccc2)c(=O)[nH]c1=O | ROD | syncytia | >40 µM
C=CCNc1ncnc2c1ncn2CCOCP(=O)(O)O | ROD | cytopathic effect / MTT | 5 µg/mL
COC(=O)CCn1c(=O)c(C)cn([C@@H]2O[C@H](CO[Si](C)(C)C(C)(C)C)[C@@H](O)[C@H]2O[Si](C)(C)C(C)(C)C)c1=O | ROD | syncytia | >10 µM
OB(O)c1ccccc1OCc1ccc(I)cc1 | ROD | syncytia | >50 µM
Cc1cn([C@H]2C[C@H](N=C(NC#N)Oc3ccccc3)[C@@H](CO)O2)c(=O)[nH]c1=O | ROD | cytopathic effect / MTT | 35 µg/mL
CCC(C)Nc1nc(N)nc2c1[nH]c[n+]2C[C@@H](C)OCP(=O)(O)O | ROD | cytopathic effect / MTT | >100 µg/mL
Cc1cc(NCc2cccc3ccccc23)c(C(=O)C(Cl)Cl)c(=O)o1 | ROD | MTT | >2 µM
CN(C)CCNc1ncnc2c1ncn2CCOCP(=O)(O)O | ROD | cytopathic effect / MTT | 75 µg/mL
OB(O)c1ccccc1 | ROD | syncytia | >250 µM
C=CCNc1ncnc2c1ncn2C[C@@H](C)OCP(=O)(O)O | ROD | cytopathic effect / MTT | 12 µg/mL
COc1ccc(C=O)cc1B(O)O | ROD | syncytia | ≥250 µM

2 of the rows above, restated:

C=CCNc1ncnc2c1ncn2CCOCP(=O)(O)O ; strain: ROD ; read by: cytopathic effect / MTT ; result: 5 µg/mL
CC(C)CNc1nc(N)nc2c1ncn2CCOCP(=O)(O)O ; strain: ROD ; read by: cytopathic effect / MTT ; result: 0.3 µg/mL

An empty or dashed field is not shown. ECn is the concentration giving n% inhibition of infection, replication or growth.